Measurements taken from PMC6162817, “Peptide Mimics of the Ribosomal P Stalk Inhibit the Activity of Ricin A Chain by Preventing Ribosome Binding” (Toxins, 2018).

Biological target: Ricin A chain, wild-type, untagged recombinant (Ricinus communis, UniProt P02879 36-302)
Assay: SPR

GFGLF []
fold KD against P5: > 20 fold
